1 compound from ChEMBL document CHEMBL5230110, “FabI (enoyl acyl carrier protein reductase) - A potential broad spectrum therapeutic target and its inhibitors” (Eur J Med Chem, 2020) can be followed below.

Amino acid sequences for entries named in this document (tags omitted). A change or cut given only in a name is not applied to a line headed by its entry.
UniProt Q6GI75: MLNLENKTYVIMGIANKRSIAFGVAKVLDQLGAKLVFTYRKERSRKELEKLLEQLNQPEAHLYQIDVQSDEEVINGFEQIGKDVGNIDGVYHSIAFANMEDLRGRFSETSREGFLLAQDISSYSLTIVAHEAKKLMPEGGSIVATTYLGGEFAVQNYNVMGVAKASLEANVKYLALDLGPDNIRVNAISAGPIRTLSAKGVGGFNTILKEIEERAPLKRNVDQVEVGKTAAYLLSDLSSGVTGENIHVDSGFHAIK

The assay addresses Enoyl-[acyl-carrier-protein] reductase [NADPH] FabI (Staphylococcus aureus, UniProt Q6GI75). In words: Inhibition of Staphylococcus aureus ATCC 29213 FabI in the presence of NADH using crotonyl CoA as substrate by measuring NADH consumption rate.

The term IC50 denotes the point on the concentration scale where inhibition reaches its midpoint. For `CC(C)CCC/C=C\CCCCCCCC(=O)O`, the IC50 is 16 µM.
